PubChem BioAssay AID504761, Drosophila RNAi Screening Center | 2011

Aim: 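Fly genes whose silencing reduces dengue virus type 2 infection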 (primary screen)
Cells: D.Mel-2 cells from Drosophila
Reagent: long dsRNA against Drosophila genes
Conditions: infection with dengue virus type 2; dose and infection time not stated
Read-out: 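Cells stained for dengue envelope protein and imaged; percent of infected cells per well on duplicate plates, ranked by infection, with stained nuclei counted for cell number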
Direction: infection score: higher = more virus-infected cells; cell count: higher = more cells in the well
Rule for the call: 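Low infection ranks in the two replicates (chance level up to 0.065) followed by a retest with a 1.5-fold or larger significant decrease, p below 0.05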
Meaning of the calls: active = confirmed: knock-down lowers infection; inactive = not picked or not confirmed
The screen tested about 22,000 reagents; below is an unselected part of those that have a named target and a result. Of all reagents, 116 (0.52%) got an active call. 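Calls depend on retest data that are not deposited; infection was ranked per plate without normalising between plates; the unit of the infection score is not given.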 Raw values vary from plate to plate and are shown uncorrected. A number with no mark means an inactive call. Reagents against one gene are numbered here. A plus sign joins genes that one reagent is predicted to hit. Not all columns of the deposit are shown. Reagent sequences are not shown. The record does not give: the amount of reagent, the time to read-out.

The first 7 entries, to show the layout:
| gene | reagent no. | infection score, replicate 1 | infection score, replicate 2 | cell count, replicate 1 |
| --- | --- | --- | --- | --- |
| CG14355 | 1 | 6.78 | 17.8 | 6197 |
| CG11350 | 1 | 4.94 | 2.22 | 6294 |
| CG11350 | 2 | 11.5 | 7.51 | 5935 |
| CG13728 | 1 | 6.45 | 7.69 | 6501 |
| hkb | 1 | 1.27 | 1.16 | 6593 |
| hkb | 2 | 2.32 | 5.46 | 6556 |
| CG33255 (retired record) + hpRNA:CR32205 | 1 | 2.73 | 1.64 | 6306 |

Main list, from the start:
| gene | reagent no. | infection score, replicate 1 | infection score, replicate 2 | cell count, replicate 1 |
| --- | --- | --- | --- | --- |
| CG14355 | 1 | 6.78 | 17.8 | 6197 |
| CG11350 | 1 | 4.94 | 2.22 | 6294 |
| CG11350 | 2 | 11.5 | 7.51 | 5935 |
| CG13728 | 1 | 6.45 | 7.69 | 6501 |
| hkb | 1 | 1.27 | 1.16 | 6593 |
| hkb | 2 | 2.32 | 5.46 | 6556 |
| CG33255 (retired record) + hpRNA:CR32205 | 1 | 2.73 | 1.64 | 6306 |
| CG33255 (retired record) + hpRNA:CR32205 | 2 | 1.88 | 3.36 | 6120 |
| okr | 1 | 2.52 | 3.16 | 6027 |
| okr | 2 | 6.59 | 0.4 | 5602 |
| CG33543 | 1 | 32.7 | 30.1 | 5620 |
| CG33543 | 2 | 10.6 | 14.2 | 6483 |
| Rad60 | 1 | 1.26 | 3.94 | 6434 |
| CG18081 | 1 | 0.44 | 1.4 | 5895 |
| CG18081 | 2 | 2.77 | 2.07 | 6425 |
| kermit | 1 | 21.5 | 7.9 | 5485 |
| kermit | 2 | 5.45 | 2.08 | 6408 |
| CG15561 | 1 | 4.48 | 1.52 | 5800 |
| CG15561 | 2 | 1.31 | 1.43 | 7086 |
| Mlc1 | 1 | – | – | 340 |
| Mlc1 | 2 | 15.8 | 4.21 | 5470 |
| CG16888 | 1 | 2.19 | 2.3 | 6472 |
| scaf | 1 | 7.09 | 26.4 | 6667 |
| CG31784 | 1 | 9.05 | 5.52 | 6031 |
| CG31861 | 1 | 1.8 | 9.54 | 6165 |
| CG31861 | 2 | 7.26 | 7.11 | 5826 |
| CG15517 | 1 | 11 | 1.93 | 4863 |
| Pbp45 | 1 | 7.95 | 5.62 | 6141 |
| CG10991 (retired record) | 1 | 6.12 | 7.96 | 6701 |
| aph-1 | 1 | 2.84 | 2.83 | 6125 |
| nAChRalpha4 | 1 | 2.4 | 2.14 | 6037 |
| nAChRalpha4 | 2 | 2.03 | 8.9 | 6941 |
| CG3592 | 1 | 1.53 | 11.1 | 653 |
| CG11275 | 1 | 8.43 | 11.3 | 6846 |
| Ir67b | 1 | 1.22 | 1.66 | 5884 |
| htk | 1 | 4.16 | 4.4 | 4232 |
| htk | 2 | 11.5 | 1.09 | 6383 |
| htk | 3 | 7.62 | 10.6 | 6167 |
| fz | 1 | 1.83 | 1.44 | 5841 |
| CG10345 | 1 | 7.19 | 6.44 | 5425 |
| Adk3 | 1 | 5.17 | 5.23 | 6579 |
| Adk3 | 2 | 8.27 | 12.5 | 6119 |
| CG5377 | 1 | 4.45 | 8.54 | 1169 |
| CG5377 | 2 | 23.2 | 19.4 | 5789 |
| CG32305 | 1 | 1.48 | 2.1 | 6468 |
| CG32305 | 2 | 10.3 | 11 | 6553 |
| tutl | 1 | 1.28 | 17 | 6243 |
| tutl | 2 | 1.7 | 5.53 | 6526 |
| tutl | 3 | 1.12 | 2.29 | 6615 |
| tutl | 4 | 9.25 | 8.06 | 6872 |
| CG11168 | 1 | 2.92 | 7.77 | 6260 |
| CG14223 | 1 | 6.88 | 1.86 | 5658 |
| CG14223 | 2 | 4.33 | 5.78 | 6473 |
| Uro | 1 | 12 | 24.6 | 6648 |
| CG13511 | 1 | 15.8 | 14 | 6051 |
| CG13511 | 2 | 14.3 | 25.1 | 3403 |
| CG6574 | 1 | 1.58 | 3.33 | 6525 |
| CG3565 | 1 | 10.9 | 18.1 | 6292 |
| CG4036 | 1 | 20.9 | 10.5 | 5934 |
| CG1265 | 1 | 3.78 | 6.78 | 6270 |
| CG31206 | 1 | 0.82 | 1.68 | 5986 |
| Cep164 | 1 | 0.96 | 2.42 | 521 |
| Nepl15 | 1 | 3.46 | 6.37 | 6627 |
| Cpr67Fb | 1 | 2.13 | 4.27 | 6009 |
| Cpr67Fb | 2 | 20.2 | 13.1 | 5631 |
| GstD3 | 1 | 4.55 | 2.93 | 6784 |
| GstD3 | 2 | 1.5 | 2.24 | 6351 |
| CG14053 | 1 | 2.71 | 0.32 | 5835 |
| trp | 1 | 6.73 | 12.5 | 6431 |
| CG5726 | 1 | 4.88 | 19 | 5796 |
| CG5726 | 2 | 5.96 | 6.37 | 6649 |
| Cyp313a3 | 1 | 9.88 | 3.79 | 6601 |
| CHES-1-like | 1 | 0.6 | 20.8 | 504 |
| Sfxn2 | 1 | 2.87 | 6.06 | 5606 |
